Test results taken from patent US6017542, “Nucleotide and amino acid sequences of canine herpesvirus GD and uses therefor” (dated 2000).

Target: rabies virus glycoprotein G (rabies virus) (UniProt P03524)

sera of squirrel monkeys inoculated with parental ALVAC only (before ALVAC-RG)
Rabies serum-neutralizing antibody (RFFI test), day 0 (International Units): < 1.2
